In PubChem BioAssay AID504329 (Southern Research Specialized Biocontainment Screening …, 2011):
The other results are listed elsewhere or left out. Entries with a potency or affinity are not part of this list. Activity calls are given as the source filed them. Rule as the data show it: inconclusive = inhibition above about 27% without an active follow-up result; inactive = below that.

test: H1N1 influenza NS1A inhibitors, functional cell based assay (AID 504329); conditions: percent inhibition, at 12.5 µM, stronger effect = higher value

SMILES | inhibition
O=[N+]([O-])c1ccc(Nc2ccc(Oc3ccc([N+](=O)[O-])cc3[N+](=O)[O-])cc2)c([N+](=O)[O-])c1 | inactive: -19.7%
Cc1cc(SC(NC=O)C(Cl)(Cl)Cl)ncn1 (centres undefined) | inactive: 0.63%
O=P(Nc1ccccn1)(c1cccc2ccccc12)c1cccc2ccccc12 | inactive: -7.53%
COP1(=S)c2c(C)nn(CCC#N)c2N=C(c2ccc(F)cc2)N1C (centres undefined) | inactive: -1.89%
O=C(Nc1ccncc1[N+](=O)[O-])c1ccc([N+](=O)[O-])cc1[N+](=O)[O-] | inactive: -1.35%
O=C(COc1ccccc1)OC1CN2CCC1CC2 (centres undefined) | inactive: -0.45%
CCOC(=O)c1ccc(NC(=O)C(C)(CCl)SC)cc1 (centres undefined) | inactive: -20.4%
O=C(OC1CN2CCC1CC2)c1cccc([N+](=O)[O-])c1 (centres undefined) | inactive: -2.79%
Cc1cc(=O)[nH]c(N[N+](=O)[O-])n1 | inactive: 1.52%
O=C(OC1CN2CCC1CC2)C12CC3CC(CC(C3)C1)C2 (centres undefined) | inactive: -3.79%
Cc1c2c(nc3ccccc13)SC(C(Cl)Cl)C2 (centres undefined) | inactive: -0.48%
COc1cc(I)ccc1[As](=O)(O)O | inactive: -7.01%
COc1ccc2nc(NP(=O)(c3ccccc3)c3ccccc3)sc2c1 | inactive: 4.47%
O=P1(N(CCCl)CCCl)Nc2ccccc2N1 | inactive: 0.67%
O=P1(N(CCCl)CCCl)OCCCN1CCCl (centres undefined) | inactive: -4.25%
COc1ccc(N/C(=N/P(=O)(N2CCOCC2)N2CCOCC2)N2CCOCC2)cc1 | inactive: 7.43%
O=[N+]([O-])c1cc(Oc2ccc([N+](=O)[O-])cc2C(F)(F)F)cc([N+](=O)[O-])c1 | inactive: 15.8%
O=[N+]([O-])c1ccc(-c2cc([N+](=O)[O-])c(O)c([N+](=O)[O-])c2)cc1 | inactive: 8.17%
COc1cc(C(=O)NCC2(N3CCOCC3)CCCCC2)ccc1OCC(C)C | inactive: 5.06%
C[As](=O)(O)c1cccc(C(=O)O)c1 | inactive: -24.5%
O=[As](O)(c1ccc(O)cc1)c1ccccc1O | inactive: -6.51%
Cc1ccc2nc3c(c(C)c2c1)CC(C(Cl)Cl)S3 (centres undefined) | inactive: 10.9%
Cc1ccc(OP(=O)(Nc2ccc([N+](=O)[O-])cn2)Oc2ccc(C)cc2)cc1 | inactive: 0.36%
COC(=O)C1(C)COP(=O)(N2CCCCCC2)OC1 (centres undefined) | inactive: -8.63%
CC(C)c1ccc(OP(=O)(Nc2ccccn2)Oc2ccccc2F)cc1 (centres undefined) | inactive: -12.9%
ClCCSc1nnc(-c2cccnc2)o1 | inactive: -2.74%
O=[N+]([O-])c1cc([N+](=O)[O-])c(-c2ccn[nH]2)s1 | inactive: -0.24%
O=C(OC1CN2CCC1CC2)c1cccc2[nH]cnc12 (centres undefined) | inactive: -1.46%
CCN(CC)C(=S)SC(NC=O)C(Cl)(Cl)Cl (centres undefined) | inactive: -6.42%
